A mixed list of measured activities; the numbers were collected in NIAID ChemDB.

All rows: enzyme or target tests; agent: Human cytomegalovirus; protein: Polymerase; measure: IC50

Rows are shuffled and stem from different studies.

O=C(NCc1ccc(Cl)cc1)c1n[nH]c2ccc(CO)cc2c1=O ; value: 51 µM
COc1cc2ccccc2cc1C(=O)NCc1ccc(Cl)cc1 ; value: 2.4 µM
O=C(NCc1ccc(Cl)cc1)c1cn(CCCSc2ccccc2)c2ccc(CN3CCOCC3)cc2c1=O ; value: 3 µM
O=C(NCc1ccc(Cl)cc1)c1n[nH]c2ccc(I)cc2c1=O ; value: >100 µM
O=C(Nc1nnc(NCCCCc2ccccc2)s1)c1ccc(Cl)c(Cl)c1 ; value: >25 µM
N/C(=N/OC(=O)c1ccccc1)c1ccc(Cl)cc1Cl ; method: scintillation proximity / radiometric ; value: 22 µM
O=C(NCc1ccc(Cl)cc1)c1c[nH]c2c(F)cc(-c3cccs3)cc2c1=O ; value: 0.26 µM
CN(Cc1cc2c3c(c1)c(=O)c(C(=O)NCc1ccc(Cl)cc1)cn3CC(=O)N2C)C[C@@H](O)c1ccco1 ; value: 0.073 µM
O=C(NCc1ccc(Cl)cc1)c1c[nH]c2ccc(CCCO)cc2c1=O ; value: 0.35 µM
N/C(=N/OC(=O)c1cccc2ccccc12)c1ccc(Cl)cc1Cl ; method: scintillation proximity / radiometric ; value: 3.1 µM
Cc1nc2[nH]cc(C(=O)NCc3ccc(Cl)cc3)c(=O)c2cc1Br ; value: >20 µM
CN(Cc1cc2c3c(c1)c(=O)c(C(=O)NCc1ccc(Cl)cc1)cn3CC(=O)N2C)CC(O)c1ccc(O)cc1 ; value: 0.081 µM
O=C(NCc1ccc(Cl)cc1)c1c[nH]c2c(F)cc(CCCO)cc2c1=O ; value: 0.26 µM
O=C(NCc1ccc(Cl)cc1)c1cn2c3c(cc(CN4CCOCC4)cc3c1=O)CN(Cc1ccccc1)C2=O ; value: >20 µM
CCOC(=O)N1CCC(Nc2nnc(NC(=O)c3cc4ccccc4s3)s2)CC1 ; value: >25 µM
Cn1cc(C(=O)NCc2ccc(Cl)cc2)c(=O)c2cc(CN3CCOCC3)ccc21 ; value: 0.58 µM
Nn1cc(C(=O)NCc2ccc(Cl)cc2)c(=O)c2cc(C#CCO)ccc21 ; value: 1 µM
N/C(=N\OC(=O)c1ccncc1)c1ccc(Cl)cc1Cl ; method: scintillation proximity / radiometric ; value: 52 µM
COC[C@H]1CCCN1n1cc(C(=O)NCc2ccc(Cl)cc2)c(=O)c2cc(CN3CCOCC3)ccc21 ; value: 4 µM
Cc1ccc(C(O)CN(C)Cc2cc3c4c(c2)c(=O)c(C(=O)NCc2ccc(Cl)cc2)cn4CC(=O)N3C)o1 ; value: 0.105 µM
O=C(NCc1ccc(Cl)cc1)c1cn(N2CCOCC2)c2ccc(CN3CCOCC3)cc2c1=O ; value: 0.3 µM
O=C(/C=C/c1ccccc1)Nc1nnc(NCc2cccc3ccccc23)s1 ; value: >25 µM
N/C(=N/OC(=O)c1cccc2ccccc12)c1cc(Cl)ccc1Cl ; method: scintillation proximity / radiometric ; value: 15 µM
Cc1ccc(CNC(=O)c2cn(N3CCOCC3)c3ccc(CN4CCOCC4)cc3c2=O)cc1 ; value: 15.2 µM
O=C(NCc1ccc(Cl)cc1)c1c[nH]c2ccc(C#CCO)cc2c1=O ; value: 0.95 µM
CCOc1ccc2ccccc2c1C(=O)Nc1nnc(NCCSCC)s1 ; value: >25 µM
O=C(NCc1ccc(Cl)cc1)c1cn(N2CCOCC2)c2ccc(CC3CCOCC3)cc2c1=O ; value: 0.2 µM

The first 3 rows once more:

smiles | method | value
O=C(NCc1ccc(Cl)cc1)c1n[nH]c2ccc(CO)cc2c1=O | - | 51 µM
COc1cc2ccccc2cc1C(=O)NCc1ccc(Cl)cc1 | - | 2.4 µM
O=C(NCc1ccc(Cl)cc1)c1cn(CCCSc2ccccc2)c2ccc(CN3CCOCC3)cc2c1=O | - | 3 µM

ICn is the concentration giving n% inhibition. An empty or dashed field is not shown.